Each structure is given as a SMILES string. This is a selection; strong and weak results do not stand in their true shares. The source made the active and inactive calls. The call rests on the fitted dose curve; in most records, active means well fitted inhibition curve with a large enough effect; inconclusive means small, poorly fitted or top-dose-only effect, or effect the other way; inactive means flat fitted curve, though single readings scatter. Entries that show only a call come without a potency.

The chains behind the UniProt entries cited, without tags or fusion partners. Where a name states a change or a piece, a line headed by the entry shows the natural chain unless it says otherwise.
UniProt O15648: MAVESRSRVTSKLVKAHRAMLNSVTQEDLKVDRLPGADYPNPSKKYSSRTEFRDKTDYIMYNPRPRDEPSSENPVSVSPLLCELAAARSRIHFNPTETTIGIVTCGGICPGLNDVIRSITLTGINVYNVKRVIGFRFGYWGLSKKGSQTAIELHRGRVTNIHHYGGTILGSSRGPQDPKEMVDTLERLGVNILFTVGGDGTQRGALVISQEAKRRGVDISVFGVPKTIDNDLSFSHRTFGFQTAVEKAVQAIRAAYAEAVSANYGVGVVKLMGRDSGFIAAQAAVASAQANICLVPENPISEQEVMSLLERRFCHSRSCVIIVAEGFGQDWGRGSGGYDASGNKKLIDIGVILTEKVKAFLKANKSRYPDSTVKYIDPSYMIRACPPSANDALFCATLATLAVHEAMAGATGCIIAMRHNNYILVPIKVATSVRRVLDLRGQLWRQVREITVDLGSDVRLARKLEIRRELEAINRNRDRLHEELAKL

For this test, the target named is ATP-dependent 6-phosphofructokinase (Trypanosoma brucei brucei) (UniProt O15648). Kind of test: qHTS Assay to Find Inhibitors of T. brucei phosphofructokinase. Further: nearly all actives have a fitted effect of over 60% in size. As to conditions: T. brucei PFK, ADP-Glo luminescence; series mostly up to 57.5 µM. The text has this: NIH Molecular Libraries Probe Production Network [MLPCN] NIH Chemical Genomics Center [NCGC] Grant: 1 R03 MH092153-01 PI Name: Malcolm Walkinshaw, University of Edinburgh NCGC Assay Overview: Various species of the protozoan family Trypanosomatidae are responsible for a range of serious human diseases in tropical and subtropical areas of the world. […] Many of the disorders caused by trypanosomatids are fatal if left untreated, but most currently used drugs are inefficient and toxic. […] Oxidative metabolism involving the mitochondrial tricarboxylic acid cycle and oxidative phosphorylation are repressed in these parasites, and recent RNA interference (RNAi) experiments have shown that even partial depletion of certain individual glycolytic enzymes can lead to the death of cultured parasites. One such glycolytic enzyme, phosphofructokinase (PFK), catalyzes the formation of fructose-1,6-bisphosphate (F1,6BP) and ADP from fructose-6-phosphate (F6P) and ATP, and in many metabolic circumstances makes an important contribution to the control of flux through the glycolytic pathway. As a specific glycolytic target, PFK is particularly attractive as it catalyzes the first irreversible step in glycolysis, and structural and kinetic studies have shown very substantial and essential differences from corresponding host enzymes, allowing for the discovery of parasite-selective inhibitors. The goal of this screen is to find small-molecule inhibitors of T. brucei PFK using a biochemical assay that measures PFK activity as a function of ADP production. A luminescence-based assay for T. brucei PFK activity has been developed which uses luciferase to detect production of ADP. Traditional luciferase-based nucleotide detection reagents rely on ATP production as a direct substrate for the luciferase reaction; however, PFK catalyzes the transfer of a phosphate from ATP to F6P, resulting in the net depletion of ATP. To directly measure the ADP product of the PFK reaction, we used the ADP-Glo detection kit (Promega), which utilizes two separate reactions to 1) deplete all remaining uncatalyzed ATP and 2) convert all remaining ADP to ATP, which is then detected through a traditional luciferase-coupled reaction. Compounds were screened as a concentration-titration series that ranged from 57 uM to 0.7 nM.
NCGC Assay Protocol Summary: NCGC Assay Protocol Summary: Substrate buffer was dispensed into white, solid 1536-well plates at 3uL/well in 0.1M triethanolamine (TEA) buffer, pH 8.0, containing final concentrations of 5 mM MgCl2, 0.01% Tween20, 0.5 mM fructose-6-phosphate (F6P) and 0.1mM ATP. Then, 23 nL of compounds or DMSO were delivered to each well using a pin tool. One uL T. brucei PFK (0.1M TEA, 0.01% Tween20, 0.1% bovine serum albumin (BSA) and 1.25nM PFK, final concentrations) was then dispensed, and plates were incubated at room temperature for 45 min. The luminescent detection reagent, ADP-Glo (Promega), was then added in two steps: the first reagent, ADP-Glo (which converts remaining uncatalyzed ATP), was added at 2.5uL/well and incubated for ten minutes at room temperature, and the second component, Kinase Detection reagent (which converts ADP to ATP as a substrate for luciferase-based luminescence), was added immediately after at 5uL/well, followed by one final ten minute room temperature incubation. The plates were measured on a ViewLux plate reader for luminescent signal using a clear filter with a one second exposure. The %Activity was determined from the corrected luminescence values. As no specific T. brucei PFK inhibitors have been identified in the literature, 1x (1.25nM) and 0x PFK enzyme controls (untreated) were included to normalize %Activity of identified inhibitors; 0x enzyme values corresponded to 100%Activity (full inhibition), while 1x PFK enzyme values were used to normalize 0%Activity (no inhibition). Concentration-response curves were fitted to the signals arising from the resulting luminescence. […]
In general terms: qHTS replaces the single test concentration by a dilution series.
As to `O=P(Nc1nc2ccc(Cl)cc2s1)(c1ccccc1)c1ccccc1`, the Potency entry was “inactive”. With `CCOP(=O)(Nc1ccccc1)OCC`, the Potency entry is “inactive”.

Turning to `Cc1cc(SC(NC(=O)c2ccc(F)cc2)C(Cl)(Cl)Cl)ncn1` (centres undefined), the Potency entry was “inactive”.

Regarding `Cc1ccc(NP(=O)(Oc2ccccc2F)Oc2ccccc2F)nc1`, the Potency entry is “inactive”. The result for `O=[N+]([O-])c1cc([N+](=O)[O-])c(CCN2CCOCC2)c([N+](=O)[O-])c1` reads “inactive”; that for `CCN(N=Nc1nonc1N)c1nonc1N`, “inactive”; that for `Nc1cccc2ccc([As](=O)(O)O)cc12`, “inactive”. For `O=C(Nc1cc([As](=O)(O)O)ccc1O)c1ccccc1` the value was “inactive”; for `CC(C)(C)C(=O)NC(Sc1ccncn1)C(Cl)(Cl)Cl` (centres undefined), “inactive”; for `O=[N+]([O-])c1ncn(CCn2ncnc2[N+](=O)[O-])n1`, “inactive”. For `O=[N+]([O-])c1cccc(NC2=NCC(CBr)S2)c1` (centres undefined), the Potency entry was “inactive”. `O=C(O)CNc1ccc([As](=O)(O)O)cc1`: the Potency result is “inactive”.

In the case of `COc1ccc(C2=NCC(CBr)S2)cc1` (centres undefined), the Potency result is “inactive”. The result for `CC(=O)N1C2C3N(C(C)=O)C1C1N(C(C)=O)C(C(N1C(C)=O)N3C(C)=O)N2C(C)=O` reads “inactive”. For the compound `O=[N+]([O-])c1cccc2n[nH]nc12`, the Potency entry is “inactive”. For `Cc1ccc(NP(=O)(Oc2ccccc2)Oc2ccccc2)nc1` the value was “inactive”. As for `O=[N+]([O-])c1cc([N+](=O)[O-])c(CCNc2ccccc2)c([N+](=O)[O-])c1`, the Potency result is “inactive”. For `CCc1nc2c(n1)c1c(non1O)c1c2no[n+]1[O-]` the value was “inactive”; for `Nc1ccc([As](=O)(O)c2ccc(N)cc2)cc1`, “inactive”; for `C[N+]1=C2C=CC=CC=C2SC12C([N+](=O)[O-])=CC([N+](=O)[O-])=C[C-]2[N+](=O)[O-]` (centres undefined), “inactive”. The result for `CCN(/C(=N/P(=O)(N1CCOCC1)N1CCOCC1)N1CCOCC1)c1ccc(OC)cc1` reads “inactive”. Turning to `CC(C)=N/N=C(\N)N[N+](=O)[O-]`, the Potency entry was “inactive”.

Regarding `CN(C)C(=O)OCCc1n(C)cc[n+]1C`, the Potency result is “inactive”. For `CC1CCN(C(=O)Oc2c(Cl)cc(Cl)c3cccnc23)CC1` the value was “inactive”.

For the origin of these results see PubChem BioAssay AID485367 (National Center for Advancing Translational Sciences (NCATS), 2010).
